Test system: SARS-CoV-2
Test: SARS-CoV-2/HeLa-ACE2 high-content screening assay (% infected cells)
Details: Table 1; selectivity ratio

c1ccc2c(NCCCCNc3c4c(nc5ccccc35)CCCC4)c3c(nc2c1)CCCC3
HeLa-ACE2 CC50/CoV-2 EC50: 18.26
